# According to patent US20240336672A1 (INSTITUT PASTEUR, published 2024):
# B1: Cv2.3132 (IgG) (antibody, V domains shown)
# VH: EVQLVESGGGLVKPGGSLRLSCAASGFTFSDYYMSWIRQAPGKGLEWVSYISSSGSVQYYADSVKGRFTISRDNAENSLYLQMNSLRAEDTAVYYCARYYYDSSGYWKRLDYWGQGTLVTVSS
# VL: not shown
# Legend:
# Assay in all cases: polyreactivity ELISA
# Set-up in all cases: unit not given beside the values
# MAPK14 = biological target: MAPK14
# gp140 = biological target: T1, gp140 (HIV-1)
# T1 construct: recombinant, coated at 125 ng/well; also called YU2 HIV-1 Env gp140
# Tg = biological target: T2, Tg
# T2 construct: also called thyroglobulin
# LZ = biological target: T3, LZ
# T3 construct: also called lysozyme
binder,measurement,setting,value
B1,AUC (polyreactivity ELISA),MAPK14,0.5
same,AUC (polyreactivity ELISA),gp140,0.3
same,AUC (polyreactivity ELISA),Tg,0.3
same,AUC (polyreactivity ELISA),LZ,0.4
